Pooled drug test results. Numbers come from NIAID ChemDB, via PubChem.

Common to all: growth or infection tests; organism: Cryptococcus neoformans

A number after MIC or MFC names an inhibition level or a share of isolates. Neighbouring rows are from separate reports. An empty or dashed field is not shown.

compound	strain or isolate	method	read-out	value
N/C(=N\O)c1ccc(OCCCCCOc2ccc(/C(N)=N/O)cc2)cc1	H99	-	MIC80	>100 µg/mL
Cc1ccc2c(n1)sc1c(Cl)nnnc12	-	-	MIC	50 µg/mL
COc1ccc(-c2c3c(N)c4c(nc3nc3c2c(C)nn3-c2ccccc2)CCCC4)cc1	ATCC 32264	broth dilution / absorbance	MIC80	125 µg/mL
Cc1cc(C)c2c(n1)sc1c(Cl)nnnc12	-	-	MIC	>100 µg/mL
CCCCNOC(=O)[C@@H](C)NC(=O)c1c(C)cc2c(c1O)-c1c(cc3c(c1O)C(=O)c1cc(OC)cc(O)c1C3=O)[C@H](O)[C@H]2OC1OC(C)C(NC)C(OC2OCC(O)C(O)C2O)C1O	IAM 4514	-	MIC	3.1 µg/mL
Nc1ccc(S(=O)(=O)Nc2ccnn2-c2ccccc2)cc1	IFM 40216	-	MIC	≤4 µg/mL
Cc1ccc(C(Cn2ccnc2)OCc2cccc3ccccc23)cc1	-	-	MIC	>128 µg/mL
Cc1cc(NS(=O)(=O)c2ccc(N)cc2)nc(C)n1	IFM 49624	-	MIC	≥256 µg/mL
COc1ccc(-c2c3c(N)c4c(nc3nc3c2c(C)nn3-c2ccccc2)CCC4)cc1	ATCC 32264	broth dilution / absorbance	MIC80	250 µg/mL
Cc1cc(O)c2c(c1)C(=O)c1cc(C(=O)O)cc(O)c1C2=O	-	-	MIC	50 µg/mL
CSc1nc(Cl)c(C#N)c(-c2ccc(F)cc2F)n1	-	-	MIC	3.12 µg/mL
OC(CN1CCN(c2ccc(OCc3ccncc3)cc2)CC1)(Cn1cncn1)c1ccc(F)cc1F	101045	-	MIC80	0.125 µg/mL
CNC1C(C)OC(O[C@H]2c3cc(C)c(C(=O)N[C@H](C)C(N)=O)c(O)c3-c3c(cc4c(c3O)C(=O)c3cc(OC)cc(O)c3C4=O)[C@@H]2O)C(O)C1OC1OCC(O)C(O)C1O	IAM 4514	-	MIC	1.6 µg/mL
CC[C@@H]([C@H](C)O)n1ncn(-c2ccc(N3CCN(c4ccc(OC[C@@H]5CO[C@@](Cn6cncn6)(c6ccc(F)cc6F)C5)cc4)CC3)cc2)c1=O	491 (HIV+)	-	MIC	0.125 µg/mL
N=C(N)c1ccc(NCCCNc2ccc(C(=N)N)cc2[N+](=O)[O-])c([N+](=O)[O-])c1	119.95	-	MFC	6.25 µg/mL
CSc1cc(-c2ccc(C)cc2)c(C(=O)O)s1	CN-17	-	MIC	>100 µg/mL
CN[C@@H]1[C@H](O[C@@H]2OC[C@@H](O)[C@H](O)[C@H]2O)[C@@H](O)[C@H](O[C@H]2c3cc(C)c(C(=O)N[C@H](C)C(=O)O)c(O)c3-c3c(cc4c(c3O)C(=O)c3cc(OC)cc(O)c3C4=O)[C@@H]2O)O[C@@H]1C	IAM 4514	-	MIC	0.4 µg/mL
COc1ccc(NS(=O)(=O)c2ccc(N)cc2)nn1	IFM 49722	-	MIC	≥256 µg/mL
Cc1nn(-c2ccccc2)c2nc3nc4c(c(N)c3c(-c3ccc(Cl)cc3)c12)CCC4	ATCC 32264	broth dilution / absorbance	MIC50	250 µg/mL
Cn1nc(Cc2ccc(Cl)cc2)c2ccccc2c1=O	Clinical isolate (IM 031633)	broth dilution	MFC	31.3 µg/mL
COc1cc(NS(=O)(=O)c2ccc(N)cc2)ncn1	IFM 51976	-	MIC	≥256 µg/mL
Cc1ccc(C(Cn2ccnc2)OC/C=C/c2ccccc2)cc1	-	-	MIC	>128 µg/mL
CCCCCCCCOc1ccc(-c2ccc(C(=O)NC3CC(NCCN)CNC(=O)[C@@H]4[C@@H](O)[C@@H](C)CN4C(=O)[C@@H](CO)NC(=O)[C@H]([C@H](O)Cc4ccccc4)NC(=O)[C@@H]4C[C@@H](O)CN4C(=O)[C@H]([C@@H](C)O)NC3=O)cc2)cc1	30 isolates	-	MIC50	8 µg/mL
CNC1C(C)OC(O[C@H]2c3cc(C)c(C(=O)N[C@H](C)C(=O)ON(C)C)c(O)c3-c3c(cc4c(c3O)C(=O)c3cc(OC)cc(O)c3C4=O)[C@@H]2O)C(O)C1OC1OCC(O)C(O)C1O	IAM 4514	-	MIC	1.6 µg/mL
NCCNC(=O)C1=Nc2ccc(NC(=O)C3=Nc4ccc(C(=O)Nc5ccc6[nH]c(C(=O)NCCN)cc6c5)cc4C3)cc2C1	Serotype B	-	MFC	8 µg/mL
CCCCN(Cc1cn(Cc2cccc(C#N)c2)nn1)CC(O)(Cn1cncn1)c1ccc(F)cc1F	-	-	MIC80	64 µg/mL
CCC(C)CC(C)CCCCCCCCC(=O)N[C@H]1C[C@@H](O)[C@H](NCCN)NC(=O)[C@@H]2[C@@H](O)CCN2C(=O)[C@H]([C@H](O)CCN)NC(=O)[C@H]([C@H](O)[C@@H](O)c2ccc(O)cc2)NC(=O)[C@@H]2C[C@@H](O)CN2C(=O)[C@H]([C@@H](C)O)NC1=O	CBS 889	broth dilution	MIC	16 µg/mL
CCOC(=O)c1sc2cc(-c3cccc([N+](=O)[O-])c3)oc(=O)c2c1N	CN-17	-	MIC	>100 µg/mL
CCCCN(Cc1cn(Cc2ccc(C)cc2)nn1)CC(O)(Cn1cncn1)c1ccc(F)cc1F	-	-	MIC80	2 µg/mL
CCSc1nc(Cl)c(C#N)c(-c2ccco2)n1	-	-	MIC	25 µg/mL
CC(C)N=C(N)c1ccc2nc(-c3ccc(CCc4ccc(-c5nc6ccc(C(N)=NC(C)C)cc6[nH]5)cc4)cc3)[nH]c2c1	135.95	-	MFC	0.19 µg/mL
CCCCN(Cc1cn(Cc2ccc(Cl)cc2Cl)nn1)CC(O)(Cn1cncn1)c1ccc(F)cc1F	-	-	MIC80	>64 µg/mL
Cc1ccc(C(Cn2ccnc2)OCc2ccc(-c3ccccc3)cc2)cc1	-	-	MIC	>128 µg/mL
CCCCN(Cc1cn(Cc2ccc(Br)cc2)nn1)CC(O)(Cn1cncn1)c1ccc(F)cc1F	-	-	MIC80	>64 µg/mL
C[C@@H](n1cnc2cc(Cl)ccc2c1=O)[C@](O)(Cn1cncn1)c1ccc(F)cc1F	Isolate 251.86	-	MIC	0.0098 µg/mL
Clc1ccc(C(Cn2ccnc2)OCc2ccc(-c3ccccc3)cc2)cc1	-	-	MIC	>128 µg/mL
Cc1nn(-c2ccccc2)c2nc3nc4c(c(N)c3c(-c3ccc(Cl)cc3)c12)CCCCC4	ATCC 32264	broth dilution / absorbance	MIC100	250 µg/mL
CCOC(=O)c1sc(SC)cc1-c1ccc(F)cc1	CN-17	-	MIC	>100 µg/mL
CCCCN(Cc1cn(Cc2cccc(Br)c2)nn1)CC(O)(Cn1cncn1)c1ccc(F)cc1F	-	-	MIC80	>64 µg/mL
CC[C@@]1(O)C[C@H](O[C@H]2C[C@H](N(C)C)[C@H](O[C@H]3C[C@H](O)[C@H](O[C@H]4CCC(=O)[C@H](C)O4)[C@H](C)O3)[C@H](C)O2)c2c(cc3c(c2O)C(=O)c2c(O)cccc2C3=O)[C@H]1C(=O)OC	G-3	-	MIC	1 µg/mL
CCSc1nc(Cl)c(C#N)c(-c2ccc(F)cc2F)n1	-	-	MIC	6.25 µg/mL
CSc1cc(-c2ccc(Br)cc2)c(C(=O)O)s1	CN-17	-	MIC	>100 µg/mL
Cc1cc(O)c2c(c1)C(=O)c1cccc(O)c1C2=O	-	-	MIC	50 µg/mL
Nc1[nH]c(=O)ncc1F	15 isolates	-	MIC90	8 µg/mL
N=C(N)c1ccc(OCCCC(O)COc2ccc(C(=N)N)cc2)cc1	119.95	-	MFC	1.56 µg/mL
CCC(C)n1ncn(-c2ccc(N3CCN(c4ccc(OC[C@H]5CO[C@](Cn6cncn6)(c6ccc(Cl)cc6Cl)O5)cc4)CC3)cc2)c1=O	-	-	MIC90	0.11 µg/mL
CCCCN(Cc1cn(Cc2cccc(F)c2)nn1)CC(O)(Cn1cncn1)c1ccc(F)cc1F	-	-	MIC80	1 µg/mL
N=C(N)c1ccc2nc(CCCc3nc4ccc(C(=N)N)cc4[nH]3)[nH]c2c1	H99	-	MIC80	>100 µg/mL
CCCCCOc1ccc(-c2cc(-c3ccc(C(=O)N[C@H]4C[C@@H](O)[C@@H](O)NC(=O)[C@@H]5[C@@H](O)[C@@H](C)CN5C(=O)[C@H]([C@H](O)CC(N)=O)NC(=O)[C@H]([C@H](O)[C@@H](O)c5ccc(O)c(OS(=O)(=O)O)c5)NC(=O)[C@@H]5C[C@@H](O)CN5C(=O)[C@H]([C@@H](C)O)NC4=O)cc3)no2)cc1	FMR 8416	-	MIC	64 µg/mL
CC[C@H]1/C=C(\C)[C@H](O)[C@H](C)C[C@H](OC)[C@H]2O[C@@](O)(C(=O)C(=O)N3CCCC[C@H]3C(=O)O[C@H](/C(C)=C/[C@@H]3CC[C@@H](O)[C@H](OC)C3)[C@H](C)[C@@H](O)CC1=O)[C@H](C)C[C@@H]2OC	C20F2	-	MIC	50 µg/mL

7 of the rows above, restated:

compound	strain or isolate	method	read-out	value
Cc1cc(O)c2c(c1)C(=O)c1cc(C(=O)O)cc(O)c1C2=O	-	-	MIC	50 µg/mL
CCCCN(Cc1cn(Cc2ccc(Cl)cc2Cl)nn1)CC(O)(Cn1cncn1)c1ccc(F)cc1F	-	-	MIC80	>64 µg/mL
CC(C)N=C(N)c1ccc2nc(-c3ccc(CCc4ccc(-c5nc6ccc(C(N)=NC(C)C)cc6[nH]5)cc4)cc3)[nH]c2c1	135.95	-	MFC	0.19 µg/mL
CCCCN(Cc1cn(Cc2ccc(C)cc2)nn1)CC(O)(Cn1cncn1)c1ccc(F)cc1F	-	-	MIC80	2 µg/mL
CCCCN(Cc1cn(Cc2cccc(Br)c2)nn1)CC(O)(Cn1cncn1)c1ccc(F)cc1F	-	-	MIC80	>64 µg/mL
Cc1nn(-c2ccccc2)c2nc3nc4c(c(N)c3c(-c3ccc(Cl)cc3)c12)CCCCC4	ATCC 32264	broth dilution / absorbance	MIC100	250 µg/mL
CCOC(=O)c1sc(SC)cc1-c1ccc(F)cc1	CN-17	-	MIC	>100 µg/mL